Results on 50 compounds are retold here after PubChem BioAssay AID652126 (The Scripps Research Institute Molecular Screening Center, 2013).

This is a selection; strong and weak results do not stand in their true shares. The source made the active and inactive calls.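 Rule for the calls: active = activation above the mean over all tested compounds plus 3 SD (cut at about 0.9% in these data); inactive = the rest.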

In this assay the test system is Nuclear hormone receptor DAF-12 (Strongyloides stercoralis). As to the kind of experiment: ssDAF-12 driven luciferase reporter activation – cell-based, luminescence, HEK293, GRIP1 co-expression, lit1-tk-luc, primary screen (AID 652126).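 Note: 0% = DMSO-only wells and 100% = 3 µM delta7-dafachronic acid wells.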 The note with it: HEK293 ssDAF-12/GRIP1 lit1-tk-luc reporter, at 6.8 µM, active compounds read high, % of 3 µM dafachronic acid response.
Consider `O=C(NCC1(N2CCCCC2)CCCCC1)c1cccc([N+](=O)[O-])c1`, for which the activation is inactive: -1.05%.

Regarding `CC(C)(C)n1nnnc1C(c1ccccc1OC(F)(F)F)N1CCC(n2c(=O)[nH]c3ccccc32)CC1` (stereo not given), the activation is inactive: -1.07%.

As for `O=C(NCC1(N2CCCCC2)CCCCC1)c1ccc(OC(F)F)cc1`, the activation was inactive: -0.71%.

Take `COc1ccc(C(c2nnnn2C2CCCC2)N2CCC(n3c(=O)[nH]c4ccccc43)CC2)cc1` (stereo not given): the activation was inactive: -0.89%.

On to `Cc1ccc(C(=O)NCC2(N(C)C)CCCCC2)o1`, for which the activation is inactive: -1.19%.

In the case of `CCCOc1ccc(C(=O)NCC2(N(C)C)CCCCC2)cc1OC`, the activation is inactive: -1.13%.

In the case of `O=C(NCC1(N2CCCCC2)CCCCC1)c1cncc(Br)c1`, the activation was inactive: 0.88%.

Regarding `CN1CCC(Nc2cccc(F)c2)CC1`, the activation was inactive: -0.77%.

On to `COc1cc(OC)c(C(=O)NCC2(N(C)C)CCCCC2)cc1OC`, for which the activation is inactive: -1.12%.

For the compound `CCC(c1nnnn1C(C)(C)C)N1CCC(n2c(=O)[nH]c3ccccc32)CC1` (stereo not given), the activation was inactive: -1.72%.

For the compound `O=C(NCC1(N2CCOCC2)CCCCC1)c1cc(F)c(F)cc1Cl`, the activation is inactive: -1.13%.

For `CCCCn1nnnc1C(c1ccnc2ccccc12)N1CCC(n2c(=O)[nH]c3ccccc32)CC1` (stereo not given), the activation is inactive: -1.13%.

On to `CC(C)c1ccc(NC2CCN(C(=O)OC(C)(C)C)CC2)cc1`, for which the activation was inactive: -1.44%.

As for `COC(=O)C1(Nc2ccccc2)CCN(Cc2ccccc2)CC1`, the activation is inactive: -1.31%.

Consider `COc1ccc(CN(CCCl)CCCl)cc1Cl`, for which the activation was inactive: -0.72%.

For `CN(C)c1cccc(C(=O)NCC2(N3CCCCC3)CCCCC2)c1`, the activation is inactive: -1.79%.

On to `O=c1[nH]c2ccccc2n1C1CCN(C(c2cc3ccccc3o2)c2nnnn2C2CCCCC2)CC1` (stereo not given), for which the activation was inactive: -1.11%.

On to `O=C(OC1CN2CCC1CC2)C1c2ccccc2Oc2ccccc21` (stereo not given), for which the activation was inactive: -1.43%.

Take `N#CC1(Nc2ccccc2)CCN(Cc2ccccc2)CC1`: the activation is inactive: -1.43%.

In the case of `O=C(NCC1(N2CCCCC2)CCCCC1)c1ccc(Cl)s1`, the activation is inactive: -0.84%.

Regarding `COc1ccc(Cl)cc1C(=O)NCC1(N2CCOCC2)CCCCC1`, the activation is inactive: -0.87%.

For the compound `CCOC(=O)N1CCC(Nc2ccc(OC)cc2)CC1`, the activation is inactive: -1.17%.

As to `CCCCn1nnnc1C(c1ccc(OC)cc1)N1CCC(n2c(=O)[nH]c3ccccc32)CC1` (stereo not given), the activation is inactive: -2.02%.

For the compound `O=c1[nH]c2ccccc2n1C1CCN(C(c2ccccc2OC(F)(F)F)c2nnnn2C2CCCCC2)CC1` (stereo not given), the activation is inactive: -0.32%.

Take `O=C(NCC1(N2CCCCC2)CCCCC1)c1ccc(Cl)nc1`: the activation was inactive: -0.95%.

On to `Cc1cc(C)cc(N(C(=O)c2ccccc2)C2CCN(C(=O)OC(C)(C)C)CC2)c1`, for which the activation was inactive: -1.58%.

For the compound `O=C(NCC1(N2CCOCC2)CCCCC1)c1cc2ccccc2o1`, the activation was inactive: -0.32%.

With `CSc1ccccc1C(=O)NCC1(N2CCCCC2)CCCCC1`, the activation is inactive: -0.38%.

Take `Cc1cccc(NC2(C#N)CCN(Cc3ccccc3)CC2)c1`: the activation was inactive: -1.4%.

Regarding `COc1ccc(C(=O)NCC2(N3CCCCC3)CCCCC2)cc1`, the activation was inactive: -0.87%.

Take `CCC(c1nnnn1C1CCCC1)N1CCC(n2c(=O)[nH]c3ccccc32)CC1` (stereo not given): the activation was inactive: -1.75%.

Regarding `CC(C)(C)OC(=O)N1CCC(N(C(=O)c2ccccc2)c2ccc(F)cc2)CC1`, the activation is inactive: -1.13%.

For `COc1ccc(C(=O)NCC2(N3CCCCC3)CCCCC2)c(OC)c1OC`, the activation was inactive: -1.86%.

As for `O=C(NCC1(N2CCCCC2)CCCCC1)c1ccc(=O)[nH]c1`, the activation is inactive: -0.41%.

Consider `CCCCn1nnnc1C(c1cccs1)N1CCC(n2c(=O)[nH]c3ccccc32)CC1` (stereo not given), for which the activation was inactive: -1.99%.

Take `O=C(NCC1(N2CCCCC2)CCCCC1)c1cccs1`: the activation is inactive: -0.31%.

Take `CCCCn1nnnc1C(CC)N1CCC(n2c(=O)[nH]c3ccccc32)CC1` (stereo not given): the activation was inactive: -1.18%.

`COc1cc(C(=O)NCC2(N(C)C)CCCCC2)ccc1OC(F)F`: the activation was inactive: -1.09%.

Take `CCOC(=O)N1CCC(Nc2cccc(C)c2)CC1`: the activation is inactive: -1.42%.

As to `O=c1[nH]c2ccccc2n1C1CCN(C(c2cccc3ccccc23)c2nnnn2C2CCCC2)CC1` (stereo not given), the activation is inactive: -1.2%.

`O=c1[nH]c2ccccc2n1C1CCN(C(c2ccccc2)c2nnnn2C2CCCCC2)CC1` (stereo not given): the activation was inactive: -1.43%.

As to `O=C(NCC1(N2CCCCC2)CCCCC1)c1ccc(F)cc1`, the activation was inactive: -0.98%.

`CCCCOc1ccc(C(=O)NCC2(N3CCOCC3)CCCCC2)cc1`: the activation was inactive: -0.92%.

As to `O=P1(N(CCCl)CCCl)SCCCS1`, the activation was inactive: -0.11%.

For `CCCCn1nnnc1C(c1cc2ccccc2o1)N1CCC(n2c(=O)[nH]c3ccccc32)CC1` (stereo not given), the activation was inactive: -1.71%.

As for `CCOC(=O)N1CCC(Nc2ccc(F)cc2)CC1`, the activation was inactive: -1.43%.

On to `COc1ccc(NC2CCN(CCc3ccccc3)CC2)c(OC)c1`, for which the activation was inactive: -1.32%.

With `CC(C)(C)n1nnnc1C(c1ccccc1)N1CCC(n2c(=O)[nH]c3ccccc32)CC1` (stereo not given), the activation is inactive: -0.4%.

As for `O=C1CCN(Cc2ccccc2)CC1`, the activation was inactive: -1.68%.

Regarding `CCOc1ccc(C)cc1CN(CCCl)CCCl`, the activation was inactive: -1.16%.
